System: A549 lung adenocarcinoma cancer cell line
Assay: Cytotoxic activity (MTT, absorbance at 540 nm)
Type: cell-based, human
Protocol: A549 lung adenocarcinoma cancer cell line was obtained from the National Institute of Cell Sciences, Pune. A549 cell line was maintained in complete tissue culture medium Dulbecco's Modified Eagle's Medium with 10% Fetal Bovine Serum and 2 mM L-Glutamine, along with antibiotics (about 100 International Unit/mL of penicillin, 100 μg/mL of streptomycin) with the pH adjusted to 7.2. The cytotoxicity was determined according to the method of Balachandran et al., (2013) with some changes. Cells (5000 cells/well) were seeded in 96 well plates containing medium with different concentrations such as 100, 80, 60, 40, 20, and 10 μg/mL. The cells were cultivated at 37° C. with 5% CO2 and 95% air in 100% relative humidity. After various durations of cultivation, the solution in the medium was removed. An aliquot of 100 μL of medium containing 1 mg/mL of 3-(4,5-dimethylthiazol-2-yl)-2,5-diphenyl-tetrazolium bromide was loaded in the plate. The cells were cultured for 4 h and then the solution in the medium was removed. An aliquot of 100 μL of DMSO was added to the plate, which was shaken until the crystals were dissolved. The cytotoxicity against cancer cells was determined by measuring the absorbance of the converted dye at 540 nm in an Enzyme linked immune sorbant assay (ELISA) reader. Cytotoxicity of each sample was expressed as the half maximal inhibitory concentration (IC50) value. The IC50 value is the concentration of test sample that causes 50% inhibition of cell growth, averaged from three replicate experiments.

CN1C(=O)N2CC(C)(OC3=C2C(=O)c2ccccc2C3=O)c2ccccc21 (stereo not shown) [C-5, Bluemomycin]
Compound Mean ± S.D (absorbance at 540 nm) (5 μg/mL): 0.565 ± 0.00384
Compound Mean ± S.D (absorbance at 540 nm) (10 μg/mL): 0.465 ± 0.00376
Compound Mean ± S.D (absorbance at 540 nm) (20 μg/mL): 0.305 ± 0.00346
Compound Mean ± S.D (absorbance at 540 nm) (40 μg/mL): 0.251 ± 0.00622
Compound Mean ± S.D (absorbance at 540 nm) (60 μg/mL): 0.198 ± 0.00353
Compound Mean ± S.D (absorbance at 540 nm) (80 μg/mL): 0.135 ± 0.00376
Compound Mean ± S.D (absorbance at 540 nm) (100 μg/mL): 0.071 ± 0.00203
